Article PMC9657007
Tags and fusion partners may be left off the protein sequences shown.

Tests used:
Assay in all cases: Southwestern blot
EcxR = target: T1, EcxR (UniProt Q2GG40); conditions: recombinant protein; residues 1-108; protein details: pET32a fusion tags (rEcxR 29.6 kDa with tags); label: 32P; probe letters rebuilt from the primers and the genome
T1 sequence (looked up): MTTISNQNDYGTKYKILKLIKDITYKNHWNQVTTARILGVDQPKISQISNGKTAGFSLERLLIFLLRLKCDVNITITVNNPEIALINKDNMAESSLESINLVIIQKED

Tr1 = target: T2, Tr1 (UniProt Q2GF81); conditions: recombinant protein; residues 1-213; protein details: pET32a fusion tags (41.8 kDa with tags); label: 32P; probe letters rebuilt from the primers and the …
T2 sequence (looked up): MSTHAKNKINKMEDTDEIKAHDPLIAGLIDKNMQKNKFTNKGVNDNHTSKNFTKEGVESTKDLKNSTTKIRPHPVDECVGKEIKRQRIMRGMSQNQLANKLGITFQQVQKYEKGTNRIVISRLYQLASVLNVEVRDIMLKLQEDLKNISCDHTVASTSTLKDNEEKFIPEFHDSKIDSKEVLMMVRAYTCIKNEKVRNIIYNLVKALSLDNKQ

MerR = target: T3, MerR (UniProt Q2GHU3); conditions: recombinant protein; residues 1-126; protein details: pET32a fusion tags (32 kDa with tags); label: 32P; probe letters rebuilt from the primers and the genome
T3 sequence (looked up): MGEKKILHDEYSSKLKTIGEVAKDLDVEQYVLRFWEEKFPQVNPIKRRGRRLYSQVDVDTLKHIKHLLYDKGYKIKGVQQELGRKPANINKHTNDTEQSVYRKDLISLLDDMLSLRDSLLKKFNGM

Measured: binding result

GACTCTAGACTTTTAATTTTATTATTGCCACATGTTAAAAATAATCTAAACTTGTTTTTATTATTGCTGCAGGTAAATAAAAATAGTGGCAAAAGAATGTAGCAATAAGAGGGGGGGGGGGGGGACTAGTTTATAAGTGCTGTTTTTCTCACCTTTACACATGATACTATACTTAACCAGTTTTTTTGCTATTACTTACCTGACGTAATATATTAAATTTTCCTTACAAAAGTTACCGATATTTTATACAAAAATTTATATTCTGACTTGCTTTTATATGACACTTCTACTATTGTTAATTTATTTGTCACTATTAGGTTATATATGAATTACA (double strand) [p28-Omp19 full promoter (SWB probe)]
binds: all assays above

TTGCTCAACCATAAAATAATGGGAAATTACCTTTTCTAGGAAGTTTCTCATTATTTAACAGTTAACTTTCTGTAAACTTCTAATAACAGTATTTTGTTCACTCTTCCCCTTAATAAAAATCATAAGTTTACAATAATGTCAAAAAGATTTCTTTTTAAACACATTTAAAATGGCTAAACCGTTTTCTGCTTTATTAGAATGATTCCCAAATAAATTTTAATTAATTACTGTTCCGTATTTATTAATATATGTTATAATGTAATTAAATAAGGATACTAGATTTGCTCATAATGCATGTACTGAATTTGTGATTTGAAATAACAAGACTTAAATGTCGAATTTAGCTTCTGTCCTAGTGGATAAGTACTTTAGCAAGTGGTAAAAGCAAGTCTACTCATATTTTTATTAATTAAGTAGTAAAGTTAACTATAGATTTTATTAAAATTTTTATTCTAATCACTTTAAATATCAATTACTTTTGTTGTAAATTTGAAAGAAATTTTATATTCTAGACTTGCTTTTCTTTATTTCTTTCATTATTCTTAAATTTTTATTATCTTTTATAAAAGGTTTATTAAC (double strand) [p28-Omp14 full promoter (SWB probe)]
binds: all assays above
